Measured values from several laboratories, pooled; numbers as filed in NIAID ChemDB.

Common to all: enzyme or target tests; species: HIV-1; target: Reverse transcriptase; measure: IC50

Blank or dashed fields: not listed here. ICn: concentration for n% inhibition. Conditions beyond the fields shown may differ between rows.

compound | strain | mutations | method | value
Cc1cc(C#N)cc(C)c1Nc1nc(NC2CCN(c3cccc(C(N)=O)c3)CC2)ncc1Br |  | K103N/Y181C | scintillation proximity | 0.016 µM
CCN1c2ncc(CCOc3ccc(-c4ncc[nH]4)cc3C)cc2C(=O)N(C)c2cccnc21 | IIIB |  | nucleotide incorporation / radiometric | <0.05 µM
Cc1cc(C#N)cc(Cl)c1Nc1ccnc(NC2CCN(c3cccc(C(N)=O)c3)CC2)n1 |  | K103N/Y181C | scintillation proximity | 0.017 µM
Cc1ccc2c(c1)N(C(C)C)C(=O)c1ccnnc1O2 |  |  | ELISA | <330 µM
Cc1cc(C#N)cc(F)c1Oc1nc(NC2CCN(c3cccc(C(N)=O)c3)CC2)ncc1Br |  | K103N/Y181C | scintillation proximity | 0.005 µM
C[Si](C)(CCCn1ccc2ccccc21)O[Si](C)(C)CCCn1ccc2ccccc21 |  |  |  | >2000 µM
CCc1ccc(-n2c(CF)nnc2SCC(=O)Nc2ccc(C(=O)O)cc2Cl)c2ccccc12 |  |  | nucleotide incorporation / radiometric | <0.05 µM
Cc1cc(C#N)cc(Cl)c1Oc1nc(NC2CCN(c3cccc(C(N)=O)c3)CC2)ncc1Cl |  | K103N/Y181C | scintillation proximity | 0.013 µM
CCc1c(Cc2ccccc2)nc(SCSC)[nH]c1=O |  |  | scintillation proximity | 12 µM
O=C1CS[C@@H]2[C@H](O)[C@@H](O)[C@H](O)[C@H](O)CN12 |  |  | RT activity / absorbance | 11.01 µM
CCOC(=O)C1SCC(=O)N1c1nc(C)c(C)c(C)n1 |  |  | RT activity / absorbance | 9.87 µM
Nc1nc2c(ncn2[C@H]2CC[C@@H](COP(=O)(O)OP(=O)(O)NP(=O)(O)OP(=O)(O)OC[C@H]3O[C@@H](n4cnc5c(N)ncnc54)[C@H](O)[C@@H]3O)O2)c(=O)[nH]1 | WT |  | nucleotide incorporation / radiometric | >50 µM
O=C(CSc1nnc(Br)n1-c1ccc(C2CCC2)c2ccccc12)Nc1ccc(C(=O)O)cc1Cl |  | RT-Y181C | nucleotide incorporation / radiometric | <0.05 µM
CC(C)=CCN1Cc2cccc3[nH]c(=S)n(c23)C[C@@H]1C |  |  | nucleotide incorporation | 0.23 µM
O=S(=O)(O)c1ccc(-c2c3nc(c(-c4ccc(S(=O)(=O)O)cc4)c4ccc([nH]4)c(-c4ccc(S(=O)(=O)O)cc4)c4nc(c(-c5ccc(S(=O)(=O)O)cc5)c5ccc2[nH]5)C=C4)C=C3)cc1 |  |  | ELISA | >6 µM
Cc1cc(C)nc(N2C(=O)CSC2CO)n1 |  |  | RT activity / absorbance | 13.58 µM
COc1cc(C#N)cc(C)c1Oc1nc(NC2CCN(c3cccc(C(N)=O)c3)CC2)ncc1Cl |  | K103N/Y181C | scintillation proximity | 0.05 µM
CC(C)=CCOc1cc(NC(=S)c2ccoc2C)ccc1Cl |  | RT-L74V |  | 2 µM
Cc1cccc(-c2ccccc2)c1Oc1nc(N)nc(NCc2ccc3occc3c2)n1 |  |  | RT activity | 100 µM
CCN1C(=O)c2ccnnc2Oc2ccc(OC)cc21 |  |  | ELISA | <330 µM
Nc1ncnc2c1ccn2[C@H]1C[C@H](F)[C@@H](COP(=O)(O)OP(=O)(O)OP(=O)(O)O)O1 | WT |  | nucleotide incorporation / radiometric | 0.11 µM
Cc1cn([C@H]2CC[C@@H](COP(=O)(O)OP(=O)(O)OP(=O)(O)O)O2)c(=O)[nH]c1=O |  |  | RT activity | 0.04 µg/mL
CCN1c2ncc(CCOc3ccc(-c4ccc(CC(=O)O)cc4OC)cc3C)cc2C(=O)N(C)c2cccnc21 | IIIB | RT-K103N Y181C | nucleotide incorporation / radiometric | <0.05 µM
Nc1ncnc2c1nnn2[C@H]1CO[C@@H](COP(=O)(O)OP(=O)(O)OP(=O)(O)O)C1 |  |  |  | 4.3 µM
CCN(Cc1ccc2occc2c1)c1nc(Nc2c(F)cccc2-c2ccccc2)[nH]c(=O)n1 |  |  | RT activity | 100 µM
CN(C)c1nc(N)nc2c1ncn2[C@H]1C[C@H](N=[N+]=[N-])[C@@H](CO)O1 |  | L74V | nucleotide incorporation | >50 µM
CCc1ccc(-n2c(SCC(=O)Nc3ccc(C(=O)O)cc3C)nnc2C(F)F)c2ccccc12 |  |  | nucleotide incorporation / radiometric | <0.05 µM
CC1=CC2C(=O)c3cc(OCC(=O)c4ccccc4)c(Br)c(O)c3C(=O)C2C(O)=C1 |  |  | nucleotide incorporation | 35 µM
Nc1ncnc2c1ncn2[C@H]1CC[C@@H](COP(=O)(O)OP(=O)(O)OP(=O)(O)O)O1 |  | RT-A62V | nucleotide incorporation / radiometric | 3.9 µM
O=C1c2ccc(O)c(O)c2C(=O)c2c(O)ccc(O)c21 |  |  | RT activity | 4.7 µg/mL
COc1cccc(S(=O)(=O)n2c(=O)[nH]c3ccc(Cl)cc32)c1 |  | K103N | nucleotide incorporation | 10 µM
Nc1nc2c(ncn2[C@H]2CC[C@@H](COP(=O)(O)OP(=O)(O)OP(=O)(O)OP(=O)(O)OC[C@H]3O[C@@H](n4cnc5c(N)ncnc54)[C@H](O)[C@@H]3O)O2)c(=O)[nH]1 | WT |  | nucleotide incorporation / radiometric | 6.8 µM
CCc1ccc(-n2c(Br)nnc2SCC(=O)Nc2ccc(C(=O)N[C@@H](CO)C(=O)OC)cc2Cl)c2ccccc12 |  | RT-Y181C | nucleotide incorporation / radiometric | <0.05 µM
CCOC(=O)CN1C(=O)c2ccnnc2Oc2c(C)cc(C)cc21 |  |  | ELISA | ~330 µM
CSCSc1nc(Cc2ccccc2)c(C(C)C)c(=O)[nH]1 |  |  | scintillation proximity | 5.6 µM
COc1ccc([C@H]2c3c(cc4c(c3OC)OCO4)C[C@H]3CSC[C@@H]32)cc1OCc1ccccc1 |  |  | nucleotide incorporation | 1.7 µM
O=C(O)CP(=O)(O)O | LAV |  |  | >500 µM
Fc1cccc(-c2ccccc2)c1Nc1nc(Cl)nc(NCc2ccc3occc3c2)n1 |  |  | RT activity | 100 µM
CCCN1C(=O)c2ccnnc2Oc2ccc(C)cc21 |  |  | ELISA | <330 µM
CCN1c2ncc(CCOc3ccc(-n4ccnc4)cc3C)cc2C(=O)N(C)c2cccnc21 | IIIB | RT-K103N Y181C | nucleotide incorporation / radiometric | <0.05 µM
CS(=O)(=O)c1ccc(NC(=O)Cn2ccc(C(F)(F)F)c(Oc3cc(Cl)cc(C#N)c3)c2=O)cc1 |  |  | RT activity / absorbance | 5.2 µM
O=C1CSC(c2c(Cl)cccc2Cl)N1CCO |  |  | RT activity / absorbance | >100 µM
COc1c2c(cc3c1[C@H](c1ccc(O)c(Oc4ccccc4)c1)[C@H]1C(=O)OC[C@@H]1C3)OCO2 |  |  | nucleotide incorporation | 5.3 µM
C[Si](C)(CCCNC(=O)c1ccccc1N)O[Si](C)(C)CCCNC(=O)c1ccccc1N |  |  |  | 125 µM
O=C1c2ccccc2S[C@@H]2[C@@H](O)[C@@H](O)[C@H](O)[C@H](O)CN12 |  |  | RT activity / absorbance | 13.44 µM
CC(C)=CCOc1cc(NC(=S)c2ccsc2C)ccc1Cl |  | RT-M184V |  | 0.8 µM
CC(C)C[C@@H]1N2Cc3c(c4ccccc4n3C(=O)OC(C)(C)C)C1(O)c1c(n(C(=O)OC(C)(C)C)c3ccccc13)C2 |  |  | radiometric | <32 µM
COc1ccc2cccc(-n3c(Br)nnc3SCC(=O)Nc3ccc(C(=O)O)cc3Cl)c2c1 |  | RT-Y181C | nucleotide incorporation / radiometric | <0.05 µM
O=c1c(O[C@@H]2O[C@H](CO)[C@@H](O)[C@H](O)[C@H]2O)c(-c2ccc(O)cc2)oc2cc(O)cc(O)c12 |  |  |  | >1000 µM
CCN1c2ncc(CCOc3ccc(C(=O)Nc4ccc[n+]([O-])c4)cc3C)cc2C(=O)N(C)c2cccnc21 | IIIB |  | nucleotide incorporation / radiometric | <0.05 µM
CCc1ccc(-n2c(Br)nnc2SCC(=O)Nc2ccc(C(=O)NCC(=O)O)cc2Cl)c2ccccc12 |  | RT-Y188L | nucleotide incorporation / radiometric | >0.1 µM
O=[N+]([O-])c1ccccc1S(=O)(=O)c1ccccc1 |  |  |  | 19 µM
CCOC(=O)CN1C(=O)c2ccnnc2Oc2ccc(C)cc21 |  |  | ELISA | ~330 µM
O=C1CS[C@H]2[C@H](O)[C@@H](O)[C@@H](O)[C@H](O)CN12 |  |  | RT activity / absorbance | 7.71 µM
Cc1cc(C(=O)O)ccc1NC(=O)CSc1nnc(C(F)F)n1-c1ccc(C)c2c1CCCC2 |  | RT-Y181C | nucleotide incorporation / radiometric | >0.1 µM
Cc1cn([C@H]2CC[C@@H](COP(=O)(O)OP(=O)(O)OP(=O)(O)O)O2)c(=O)[nH]c1=O | WT |  | nucleotide incorporation / radiometric | 0.12 µM
Cc1cc(C#CCCCCCCC(=O)NCc2cn(C3C[C@H](O)[C@@H](COP(=O)(O)OP(=O)(O)OP(=O)(O)O)O3)c(=O)[nH]c2=O)cc(C)c1Oc1ccnc(Nc2ccc(C#N)cc2)n1 |  |  | nucleotide incorporation | 0.006 µM
Cc1cc(C2CC2)c2ccccc2c1-n1c(Br)nnc1SCC(=O)Nc1ccc(C(=O)O)cc1Cl |  | RT-Y181C | nucleotide incorporation / radiometric | <0.05 µM
CCCCCCCCCCCCCCOC(=O)Nc1c(O)c2ccc(O[C@@H]3OC(C)(C)[C@H](CO)[C@@H](OC(N)=O)[C@H]3O)c(C)c2oc1=O |  |  | radiometric | 30 µM
[N-]=[N+]=N[C@H]1C[C@H](n2ccc(=O)[nH]c2=O)O[C@@H]1COP(=O)(O)OP(=O)(O)OP(=O)(O)O |  |  |  | 0.0098 µM
CC(C)(C)c1ccnc(C(=O)Nc2cc(Cl)c(Cl)cc2NC(=O)c2cc(C(C)(C)C)ccn2)c1 |  |  | ELISA | >6 µM
COc1cc(C#N)cc(C)c1Oc1nc(NC2CCN(c3cccc(C(N)=O)c3)CC2)ncc1C |  | K103N/Y181C | scintillation proximity | 0.011 µM
C[Si](C)(CCCn1ccnc1)O[Si](C)(C)CCCn1ccnc1 |  |  |  | >2000 µM
Cc1ccc2c(c1)N(CCCCl)C(=O)c1ccnnc1O2 |  |  | ELISA | ~330 µM
O=C1c2ccccc2C(=O)c2c(O)c(O)cc(O)c21 |  |  | RT activity | 9.3 µg/mL

For reference, 4 entries again:

compound,strain,mutations,method,value
CCCCCCCCCCCCCCOC(=O)Nc1c(O)c2ccc(O[C@@H]3OC(C)(C)[C@H](CO)[C@@H](OC(N)=O)[C@H]3O)c(C)c2oc1=O,,,radiometric,30 µM
O=C1CS[C@H]2[C@H](O)[C@@H](O)[C@@H](O)[C@H](O)CN12,,,RT activity / absorbance,7.71 µM
CCOC(=O)CN1C(=O)c2ccnnc2Oc2ccc(C)cc21,,,ELISA,~330 µM
COc1ccc2cccc(-n3c(Br)nnc3SCC(=O)Nc3ccc(C(=O)O)cc3Cl)c2c1,,RT-Y181C,nucleotide incorporation / radiometric,<0.05 µM